Experimental data: PubChem BioAssay AID1259414 (Drosophila RNAi Screening Center, 2018)
In all, the deposit lists about 24,000 reagents; below is an unselected part of those that have a named target and a result. Of all reagents, about 1,210 (5%) were called active. 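Inactive calls also include excluded dsRNAs with several or no targets, genes unexpressed in JW18, and well A1, regardless of score.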 Reagents against one gene are numbered here. Names joined by + are all predicted targets of the reagent.

Aim: 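Host factors increasing or decreasing Wolbachia levels in cultured fly cells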 (primary screen)
Cells: Drosophila JW18 cells infected with Wolbachia
Reagent: long dsRNA against Drosophila genes, 0.25 µg dsRNA per well of a 384-well plate
Time to read-out: 5 days
Conditions: cells persistently infected with Wolbachia before knock-down; no added drug
Measured: 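Imaged fluorescence in situ signal for Wolbachia 23S rRNA per DAPI-counted host cell, given as a robust z-score within each plate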
Reading the numbers: Wolbachia per cell robust z: higher = more Wolbachia per host cell than the plate typical
Call rule: 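Active if absolute robust z reaches 1.5 in two or more of three replicates, leaving out multi- or no-target dsRNAs, genes unexpressed in JW18 and A1 wells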

Silencing of CG42594 #1 came out at: Wolbachia per cell robust z, rep 1 = 0.0246; Wolbachia per cell robust z, rep 2 = 0.571; Wolbachia per cell robust z, rep 3 = -0.755; inactive.
After knock-down of CG42594 #2, the record shows Wolbachia per cell robust z, rep 1 = 0.413; Wolbachia per cell robust z, rep 2 = -0.796; Wolbachia per cell robust z, rep 3 = -4.18; inactive.
For CG42594 #3 the deposit lists Wolbachia per cell robust z, rep 1 = 0.0337; Wolbachia per cell robust z, rep 2 = -1.56; Wolbachia per cell robust z, rep 3 = -0.0832; inactive.
Silencing of CG42594 #4 resulted in: Wolbachia per cell robust z, rep 1 = -0.518; Wolbachia per cell robust z, rep 2 = -0.938; Wolbachia per cell robust z, rep 3 = 0.0586; inactive.
Against CG42594 #5, the entry reads Wolbachia per cell robust z, rep 1 = -0.41; Wolbachia per cell robust z, rep 2 = -0.102; Wolbachia per cell robust z, rep 3 = -3.42; inactive.
Knock-down of CG34038 resulted in: Wolbachia per cell robust z, rep 1 = -0.196; Wolbachia per cell robust z, rep 2 = -3.84; Wolbachia per cell robust z, rep 3 = -5.5; inactive.
After knock-down of fz4, the record shows Wolbachia per cell robust z, rep 1 = -5.49; Wolbachia per cell robust z, rep 2 = -0.0687; Wolbachia per cell robust z, rep 3 = -2.28; active.
Cyp4s3 #1 scored Wolbachia per cell robust z, rep 1 = -0.151; Wolbachia per cell robust z, rep 2 = 0.654; Wolbachia per cell robust z, rep 3 = -2.25; inactive.
Depletion of Cyp4s3 #2 resulted in: Wolbachia per cell robust z, rep 1 = -1.28; Wolbachia per cell robust z, rep 2 = 0.727; Wolbachia per cell robust z, rep 3 = 0.0597; inactive.
With knock-down of Cyp4s3 #3, the screen gave Wolbachia per cell robust z, rep 1 = 0.969; Wolbachia per cell robust z, rep 2 = 0.398; Wolbachia per cell robust z, rep 3 = 0.301; inactive.
After knock-down of CR31700, the screen gave Wolbachia per cell robust z, rep 1 = -3.76; Wolbachia per cell robust z, rep 2 = -0.607; Wolbachia per cell robust z, rep 3 = -1.16; inactive.
Dtd showed Wolbachia per cell robust z, rep 1 = -1.42; Wolbachia per cell robust z, rep 2 = -5.55; Wolbachia per cell robust z, rep 3 = -1.49; inactive.
Nasp + CG34135 + CG11768 #1 gave Wolbachia per cell robust z, rep 1 = 0.991; Wolbachia per cell robust z, rep 2 = 2.28; Wolbachia per cell robust z, rep 3 = 1.58; inactive.
For Nasp + CG34135 + CG11768 #2, the entry reads Wolbachia per cell robust z, rep 1 = -6.68; Wolbachia per cell robust z, rep 2 = -1.67; Wolbachia per cell robust z, rep 3 = -1.98; inactive.
Ldaf1 #1 scored Wolbachia per cell robust z, rep 1 = 1.11; Wolbachia per cell robust z, rep 2 = 0.133; Wolbachia per cell robust z, rep 3 = 0.0603; inactive.
For Ldaf1 #2, the values are Wolbachia per cell robust z, rep 1 = -2.69; Wolbachia per cell robust z, rep 2 = -1.01; Wolbachia per cell robust z, rep 3 = 1.09; inactive.
CG32700 #1 gave Wolbachia per cell robust z, rep 1 = 0.369; Wolbachia per cell robust z, rep 2 = -2.53; Wolbachia per cell robust z, rep 3 = -0.37; inactive.
Against CG32700 #2, the values are Wolbachia per cell robust z, rep 1 = 0.601; Wolbachia per cell robust z, rep 2 = 0.679; Wolbachia per cell robust z, rep 3 = 0.886; inactive.
For CG31465 #1, the entry reads Wolbachia per cell robust z, rep 1 = -0.0487; Wolbachia per cell robust z, rep 2 = -0.111; Wolbachia per cell robust z, rep 3 = -5.29; inactive.
After knock-down of CG31465 #2 the results were Wolbachia per cell robust z, rep 1 = -0.0686; Wolbachia per cell robust z, rep 2 = -0.352; Wolbachia per cell robust z, rep 3 = -0.0515; inactive.
Silencing of CG12826 resulted in: Wolbachia per cell robust z, rep 1 = -1.87; Wolbachia per cell robust z, rep 2 = 0.385; Wolbachia per cell robust z, rep 3 = 0.0958; inactive.
Silencing of pre-mod(mdg4)-V came out at: Wolbachia per cell robust z, rep 1 = 0.134; Wolbachia per cell robust z, rep 2 = 0.445; Wolbachia per cell robust z, rep 3 = 0.78; inactive.
For Esp, the entry reads Wolbachia per cell robust z, rep 1 = -1.34; Wolbachia per cell robust z, rep 2 = -1.17; Wolbachia per cell robust z, rep 3 = -0.532; inactive.
Ppox gave Wolbachia per cell robust z, rep 1 = -2.63; Wolbachia per cell robust z, rep 2 = -2.34; Wolbachia per cell robust z, rep 3 = 0.769; active.
Silencing of ACXE came out at: Wolbachia per cell robust z, rep 1 = 0.111; Wolbachia per cell robust z, rep 2 = 0.88; Wolbachia per cell robust z, rep 3 = 0.498; inactive.
Against CG4650 the deposit lists Wolbachia per cell robust z, rep 1 = 1.69; Wolbachia per cell robust z, rep 2 = -1.27; Wolbachia per cell robust z, rep 3 = -0.434; inactive.
CG2256 #1 gave Wolbachia per cell robust z, rep 1 = -1.59; Wolbachia per cell robust z, rep 2 = -0.119; Wolbachia per cell robust z, rep 3 = 0.284; inactive.
After knock-down of CG2256 #2 the results were Wolbachia per cell robust z, rep 1 = -1.85; Wolbachia per cell robust z, rep 2 = 1.31; Wolbachia per cell robust z, rep 3 = 0.0927; inactive.
sotv + CG10731 gave Wolbachia per cell robust z, rep 1 = 0.0358; Wolbachia per cell robust z, rep 2 = 0.54; Wolbachia per cell robust z, rep 3 = 0.283; inactive.
Against Oseg1, the entry reads Wolbachia per cell robust z, rep 1 = 1.11; Wolbachia per cell robust z, rep 2 = 1.36; Wolbachia per cell robust z, rep 3 = 0.235; inactive.

Sorted by “Wolbachia per cell robust z, rep 1” (low to high): some entries from above
Nasp + CG34135 + CG11768 #2: Wolbachia per cell robust z, rep 1 = -6.68; Wolbachia per cell robust z, rep 2 = -1.67; Wolbachia per cell robust z, rep 3 = -1.98; activity call = inactive
Ldaf1 #1: Wolbachia per cell robust z, rep 1 = 1.11; Wolbachia per cell robust z, rep 2 = 0.133; Wolbachia per cell robust z, rep 3 = 0.0603; activity call = inactive
